This is a selection; strong and weak results do not stand in their true shares. The source made the active and inactive calls. Calls come from the whole dose curve; as a rule, active = well fitted inhibition curve with a large enough effect; inconclusive = small, poorly fitted or top-dose-only effect, or effect the other way; inactive = flat fitted curve, though single readings scatter.
Potency is the fitted concentration of half-maximal effect.

Chains of the proteins cited; added tags and fusions are not shown. Lines headed by an entry give the natural chain unless they say otherwise; changes in a name come on top.
UniProt O15648: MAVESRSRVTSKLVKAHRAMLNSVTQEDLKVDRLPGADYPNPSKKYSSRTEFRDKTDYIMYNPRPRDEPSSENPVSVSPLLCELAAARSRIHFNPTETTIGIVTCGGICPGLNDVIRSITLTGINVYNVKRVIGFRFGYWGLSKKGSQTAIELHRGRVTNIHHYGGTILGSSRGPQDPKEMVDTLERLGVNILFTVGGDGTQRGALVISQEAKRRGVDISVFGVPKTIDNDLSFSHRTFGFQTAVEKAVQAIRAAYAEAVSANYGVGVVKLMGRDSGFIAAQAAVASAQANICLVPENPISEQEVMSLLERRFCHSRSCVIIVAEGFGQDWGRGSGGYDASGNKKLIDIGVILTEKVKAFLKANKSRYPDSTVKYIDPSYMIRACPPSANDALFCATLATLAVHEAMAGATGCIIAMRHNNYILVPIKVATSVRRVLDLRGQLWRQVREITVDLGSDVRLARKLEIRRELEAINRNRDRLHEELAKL

This experiment concerns the target ATP-dependent 6-phosphofructokinase (Trypanosoma brucei brucei) (UniProt O15648). Kind of experiment: qHTS Assay to Find Inhibitors of T. brucei phosphofructokinase. Note: nearly all actives have a fitted effect of over 60% in size. As to conditions: T. brucei PFK, ADP-Glo luminescence; series mostly up to 57.5 µM; activity, negative = inhibition: at the top concentration. An excerpt:
NIH Molecular Libraries Probe Production Network [MLPCN] NIH Chemical Genomics Center [NCGC] Grant: 1 R03 MH092153-01 PI Name: Malcolm Walkinshaw, University of Edinburgh NCGC Assay Overview: Various species of the protozoan family Trypanosomatidae are responsible for a range of serious human diseases in tropical and subtropical areas of the world. […] Many of the disorders caused by trypanosomatids are fatal if left untreated, but most currently used drugs are inefficient and toxic. […] Oxidative metabolism involving the mitochondrial tricarboxylic acid cycle and oxidative phosphorylation are repressed in these parasites, and recent RNA interference (RNAi) experiments have shown that even partial depletion of certain individual glycolytic enzymes can lead to the death of cultured parasites. One such glycolytic enzyme, phosphofructokinase (PFK), catalyzes the formation of fructose-1,6-bisphosphate (F1,6BP) and ADP from fructose-6-phosphate (F6P) and ATP, and in many metabolic circumstances makes an important contribution to the control of flux through the glycolytic pathway. As a specific glycolytic target, PFK is particularly attractive as it catalyzes the first irreversible step in glycolysis, and structural and kinetic studies have shown very substantial and essential differences from corresponding host enzymes, allowing for the discovery of parasite-selective inhibitors. The goal of this screen is to find small-molecule inhibitors of T. brucei PFK using a biochemical assay that measures PFK activity as a function of ADP production. A luminescence-based assay for T. brucei PFK activity has been developed which uses luciferase to detect production of ADP. Traditional luciferase-based nucleotide detection reagents rely on ATP production as a direct substrate for the luciferase reaction; however, PFK catalyzes the transfer of a phosphate from ATP to F6P, resulting in the net depletion of ATP. To directly measure the ADP product of the PFK reaction, we used the ADP-Glo detection kit (Promega), which utilizes two separate reactions to 1) deplete all remaining uncatalyzed ATP and 2) convert all remaining ADP to ATP, which is then detected through a traditional luciferase-coupled reaction. Compounds were screened as a concentration-titration series that ranged from 57 uM to 0.7 nM.
NCGC Assay Protocol Summary: NCGC Assay Protocol Summary: Substrate buffer was dispensed into white, solid 1536-well plates at 3uL/well in 0.1M triethanolamine (TEA) buffer, pH 8.0, containing final concentrations of 5 mM MgCl2, 0.01% Tween20, 0.5 mM fructose-6-phosphate (F6P) and 0.1mM ATP. Then, 23 nL of compounds or DMSO were delivered to each well using a pin tool. One uL T. brucei PFK (0.1M TEA, 0.01% Tween20, 0.1% bovine serum albumin (BSA) and 1.25nM PFK, final concentrations) was then dispensed, and plates were incubated at room temperature for 45 min. The luminescent detection reagent, ADP-Glo (Promega), was then added in two steps: the first reagent, ADP-Glo (which converts remaining uncatalyzed ATP), was added at 2.5uL/well and incubated for ten minutes at room temperature, and the second component, Kinase Detection reagent (which converts ADP to ATP as a substrate for luciferase-based luminescence), was added immediately after at 5uL/well, followed by one final ten minute room temperature incubation. The plates were measured on a ViewLux plate reader for luminescent signal using a clear filter with a one second exposure. The %Activity was determined from the corrected luminescence values. As no specific T. brucei PFK inhibitors have been identified in the literature, 1x (1.25nM) and 0x PFK enzyme controls (untreated) were included to normalize %Activity of identified inhibitors; 0x enzyme values corresponded to 100%Activity (full inhibition), while 1x PFK enzyme values were used to normalize 0%Activity (no inhibition). Concentration-response curves were fitted to the signals arising from the resulting luminescence. […]
In general terms: qHTS replaces the single test concentration by a dilution series.
As to `COP1(=S)c2c(C)nn(CCC#N)c2N=C(c2ccc(F)cc2)N1C` (centres undefined), the “activity, negative = inhibition” value was inactive: -8.53%.
`O=C(COc1ccccc1)OC1CN2CCC1CC2` (centres undefined): the “activity, negative = inhibition” value was inactive: 2.18%.
Take `O=C(Nc1ccncc1[N+](=O)[O-])c1ccc([N+](=O)[O-])cc1[N+](=O)[O-]`: the “activity, negative = inhibition” value was inactive: 2.08%.
Consider `CCOC(=O)c1ccc(NC(=O)C(C)(CCl)SC)cc1` (centres undefined), for which the “activity, negative = inhibition” value was inactive: 3.51%.
Turning to `O=C(OC1CN2CCC1CC2)c1cccc([N+](=O)[O-])c1` (centres undefined), the “activity, negative = inhibition” value is inactive: -11.7%.
The same measure, in the same setting: then `CCC(C)N(CC(C)C)C(=S)SC(NC(C)=O)C(Cl)(Cl)Cl` (centres undefined), with inactive: 1.37%; and `CCOC(=O)Nc1ccc([As](=O)(O)O)c(O)c1`, with inactive: 2.93%.
In the case of `CCCCOc1ccc(C(=O)NCC2(N3CCCCC3)CCCCC2)cc1OC`, the “activity, negative = inhibition” value is inactive: 1.75%.
On to `Cc1cc(SC(NC(=O)c2ccccc2)C(Cl)(Cl)Cl)nc(C(C)C)n1` (centres undefined), for which the “activity, negative = inhibition” value is inactive: -6.17%.
As for `CCOC(=O)Nc1cccc([As](=O)(O)O)c1`, the “activity, negative = inhibition” value is inactive: 2.8%.
Consider `O=[N+]([O-])c1ccc(Nc2ccc(Oc3ccc([N+](=O)[O-])cc3[N+](=O)[O-])cc2)c([N+](=O)[O-])c1`, for which the “activity, negative = inhibition” value was inactive: -6.77%.
As for `O=P(Nc1ccccn1)(c1cccc2ccccc12)c1cccc2ccccc12`, the “activity, negative = inhibition” value was inactive: 2.22%.
`O=[As](O)(c1ccc(O)cc1)c1ccccc1O`: the “activity, negative = inhibition” value is inactive: 2.06%.
Still for that read-out and setting: the figure for `C[As](=O)(O)c1cccc(C(=O)O)c1` is inactive: 5.49%; for `COc1cc(C(=O)NCC2(N3CCOCC3)CCCCC2)ccc1OCC(C)C` it is inactive: 3.07%.
Consider `Cc1ccc2nc3c(c(C)c2c1)CC(C(Cl)Cl)S3` (centres undefined), for which the “activity, negative = inhibition” value is inactive: 0%.
`Cc1ccc(OP(=O)(Nc2ccc([N+](=O)[O-])cn2)Oc2ccc(C)cc2)cc1`: the “activity, negative = inhibition” value was inactive: 0.0192%.
In the case of `CC(C)c1ccc(OP(=O)(Nc2ccccn2)Oc2ccccc2F)cc1` (centres undefined), the “activity, negative = inhibition” value was inactive: 1.95%.
Consider `ClCCSc1nnc(-c2cccnc2)o1`, for which the “activity, negative = inhibition” value is inactive: 5.07%.
Regarding `CCN(CC)C(=S)SC(NC=O)C(Cl)(Cl)Cl` (centres undefined), the “activity, negative = inhibition” value was inactive: 0.97%.
In the case of `CC(C)NC(=O)NP(=O)(Oc1ccccc1)Oc1ccccc1`, the “activity, negative = inhibition” value was inactive: -0.0396%.
Consider `O=[N+]([O-])c1cc([N+](=O)[O-])c(-c2ccn[nH]2)s1`, for which the “activity, negative = inhibition” value was inactive: -1.37%.
As for `O=C(OC1CN2CCC1CC2)C12CC3CC(CC(C3)C1)C2` (centres undefined), the “activity, negative = inhibition” value is inactive: -5.4%.
Consider `Cc1cc(=O)[nH]c(N[N+](=O)[O-])n1`, for which the “activity, negative = inhibition” value was inactive: 0.617%.
On the same count and under the same terms, then `Cc1c2c(nc3ccccc13)SC(C(Cl)Cl)C2` (centres undefined), with inactive: -0.513%; and `COc1ccc2nc(NP(=O)(c3ccccc3)c3ccccc3)sc2c1`, with inactive: -4.86%; and `COc1cc(I)ccc1[As](=O)(O)O`, with inactive: 3.71%.
On to `COc1ccc(N/C(=N/P(=O)(N2CCOCC2)N2CCOCC2)N2CCOCC2)cc1`, for which the “activity, negative = inhibition” value is inactive: -3.13%.
Still for that read-out and setting: then `COc1cc(C(=O)NCC2(N3CCOCC3)CCCCC2)cc(Cl)c1OC(C)C`, with inactive: 0.867%.
Same read-out and setting: then `O=[As](O)(O)c1cccnc1`, with inactive: -0.827%; and `CS(=O)(=O)c1ccc(Cl)c(NC(=O)COC(=O)C(O)(c2ccccc2)c2ccccc2)c1`, with inactive: 1.12%; and `O=C(OC1CN2CCC1CC2)c1ccc(Cl)cc1` (centres undefined), with inactive: -3.93%.
Consider `O=[As](O)(c1cccc(O)c1)c1cccc(O)c1`, for which the “activity, negative = inhibition” value is inactive: 3.98%.
Take `CCCOP(=S)(Nc1nc(N)cc(=O)[nH]1)OCCC`: the “activity, negative = inhibition” value was inactive: -19.6%.
For `Cc1ccc(NCCc2c([N+](=O)[O-])cc([N+](=O)[O-])cc2[N+](=O)[O-])cc1`, the “activity, negative = inhibition” value was inactive: 10.6%.
Same read-out and setting: the figure for `COc1cc(C2NCCC3(OCCO3)C2(C)C)cc(OC)c1OC` (centres undefined) is inactive: 0.549%; for `CCOP(=O)(Nc1cccc2ccccc12)OCC` it is inactive: -4.82%.
For `CS(=O)(=O)c1cc([N+](=O)[O-])c2no[n+]([O-])c2c1`, the “activity, negative = inhibition” value was inactive: -4.76%.
With `CCOP1(=S)c2c(C)nn(CCC#N)c2N=C(c2ccccc2F)N1C` (centres undefined), the “activity, negative = inhibition” value was inactive: -0.694%.
Turning to `O=P(Nc1nccs1)(c1ccccc1)c1nc2ccccc2s1` (centres undefined), the Potency was active: 26.9 µM.
On to `O=P(Nc1nccs1)(Oc1ccccc1)Oc1ccccc1`, for which the “activity, negative = inhibition” value is inactive: -1.02%.
Regarding `O=C(O)COc1ccc([As](=O)(O)O)cc1[N+](=O)[O-]`, the “activity, negative = inhibition” value is inactive: 16.5%.
On to `Nc1ccccc1[As](=O)(O)c1ccccc1`, for which the “activity, negative = inhibition” value is inactive: 0.468%.
Regarding `NC(=O)Nc1ccc([As](=O)(O)O)cc1`, the “activity, negative = inhibition” value is inactive: -1.88%.
In the case of `O=[N+]([O-])c1ccc2c(c1)nnn2O`, the “activity, negative = inhibition” value was inactive: 0.376%.
For the compound `N#CCCN(C(=O)COC(=O)C(O)(c1ccccc1)c1ccccc1)c1ccc(F)cc1`, the “activity, negative = inhibition” value was inactive: 4.23%.
Same read-out and setting: then `CCOP1(=S)c2c(C)nn(CCC#N)c2N=C(c2ccc(F)cc2)N1C` (centres undefined), with inactive: 6.18%.
Turning to `CN(C(=O)Cc1ccccc1)[C@@H]1CC[C@]2(CCCO2)C[C@H]1N1CCCC1`, the “activity, negative = inhibition” value is inactive: 0.616%.
Still for that read-out and setting: the figure for `Cc1nn(-c2ccccc2)c2c1P(=O)(N1CCOCC1)N(C)C(c1ccccc1)=N2` (centres undefined) is inactive: 4.87%; for `Cc1ccc(C(=O)OC2CN3CCC2CC3)cc1` (centres undefined) it is inactive: 4.25%.
For the compound `CC1CCC(C(C)C)C(OP(=O)(Nc2ccccn2)c2ccccc2)C1` (centres undefined), the “activity, negative = inhibition” value was inactive: 7.13%.
Regarding `O=C(/C=C/c1ccccc1)OC1CN2CCC1CC2` (centres undefined), the “activity, negative = inhibition” value was inactive: -1.34%.
Regarding `CN(C)C1(CNC(=O)c2ccc(S(C)(=O)=O)cc2)CCCCC1`, the “activity, negative = inhibition” value was inactive: -4.5%.
For the compound `O=P1(Nc2ncccn2)COc2ccccc2OC1`, the “activity, negative = inhibition” value is inactive: 18%.
Regarding `NS(=O)(=O)c1cccc(NC(=O)COC(=O)C(O)(c2ccccc2)c2ccccc2)c1`, the “activity, negative = inhibition” value was inactive: -0.0821%.
Same read-out and setting: the figure for `O=P1(Nc2ccc(Br)cn2)COc2ccccc2OC1` is inactive: -28.7%.
`O=[As](O)(c1cccs1)c1cccs1`: the “activity, negative = inhibition” value was inactive: 0.894%.
Turning to `Cc1ccc(OCC(=O)OC2CN3CCC2CC3)cc1` (centres undefined), the “activity, negative = inhibition” value is inactive: -0.0306%.
For the compound `Nc1cccc([As](=O)(O)c2ccccc2)c1`, the “activity, negative = inhibition” value was inactive: 2.69%.

For the origin of these results see PubChem BioAssay AID485367 (National Center for Advancing Translational Sciences (NCATS), 2010).
